In one experiment the target is SARS‐CoV PL^pro (Severe acute respiratory syndrome coronavirus, UniProt P0C6X7). Format: biochemical.
A further experiment addresses SARS‐CoV‐2 PL^pro (Severe acute respiratory syndrome coronavirus 2, UniProt P0DTD1). Format: biochemical.
Experiment [1] has as its target interaction of the RBD of the SARS‐CoV‐2 S protein with the ACE2 receptor (Severe acute respiratory syndrome coronavirus 2, UniProt P0DTC2). Type of experiment: binding. Conditions: read-out: IC50 as inhibitors of the S/ACE2 interaction.

This note sets out measurements from publication PMC8653295 (Chemistry (Weinheim an Der Bergstrasse, Germany), 2021).

In the case of “Rb5.5Na4.5[{(p‐tolyl)Sb}4(PW9O34)2] ⋅ 40H2O [POM‐6]”, the IC50 turned out to be 9100 ± 1600 nM at SARS‐CoV PL^pro, 200 ± 30 nM on SARS‐CoV‐2 PL^pro and 200 ± 100 nM in experiment [1].

As to “Rb6Na6[{(p‐tolyl)Sb}4(GeW9 O34)2] ⋅ 40H2O [POM‐7]”, the values for the IC50 (against SARS‐CoV PL^pro; against SARS‐CoV‐2 PL^pro; in experiment [1]) were 2400 ± 1600 nM, 460 ± 190 nM and 300 ± 100 nM, respectively.

Na6[TeW6O24] ⋅ 22H2O [POM‐5]: the IC50 against SARS‐CoV PL^pro turned out to be 19300 ± 4600 nM.

As to Na12[PbO8Pd12 (PO4)8] ⋅ 38H2O [POM‐1], on SARS‐CoV PL^pro, the IC50 stood at 950 ± 60 nM and the “IC50 SARS‐CoV PL^pro” value is listed as “submicromolar concentration range”. In addition, on SARS‐CoV‐2 PL^pro, the IC50 was determined as 170 ± 110 nM.

`CCn1[c]([Au-][S]C(=S)N2CCC(C(=O)NC3C(O)OC(CO)C(O)C3O)CC2)[n+](CC)c2ccccc21` (mixture of isomers) [Au‐35] gave an IC50 at SARS‐CoV PL^pro of 710 ± 50 nM.

Take Na12[SnO8Pd12(PO4)8] ⋅ 43H2O [POM‐2]: on SARS‐CoV PL^pro, the IC50 turned out to be 820 ± 170 nM and the “IC50 SARS‐CoV PL^pro” value was “submicromolar concentration range”. This compound also had an IC50 against SARS‐CoV‐2 PL^pro of 540 ± 80 nM.

As to “[Pd16Na2O26 (OH)3Cl3((CH3)2As)8] ⋅ 0.25Na(CH3)2AsO2 ⋅ 17H2O [POM‐11]”, the IC50 against SARS‐CoV PL^pro came to 710 ± 200 nM; against SARS‐CoV‐2 PL^pro it was 130 ± 40 nM; in experiment [1], 2500 ± 300 nM. Besides, on SARS‐CoV PL^pro, the “IC50 SARS‐CoV PL^pro” value is recorded as “submicromolar concentration range”.
